Measured values as given in US20230212210A1 (priority 2020, published 2023).

Target: S1 protein (or the S1 subunit) of SARS-CoV-2 (Severe acute respiratory syndrome coronavirus 2, UniProt P0DTC2)
Type: binding
Settings: for affinity with the S1 protein (in words): judged from the Kd data in Table 7; for Kd: microscale thermophoresis, RED-NHS labelled S1 protein, read-out: Dissociation constants (Kd) of the binding of the S1 protein to various sugar chains

Row | Substance | affinity with the S1 protein (in words) | Kd
1 | Fucα1-2Galβ1-4Glc [HMO3] | relatively weak | 71 µM
2 | sodium chondroitin sulfate | relatively weak | 19 µM
3 | sodium heparin sulfate [reference compound] | relatively strong | 1.25 µM
